Literature values in publication PMC9694544, “Conteltinib (CT-707) in patients with advanced ALK-positive non-small cell lung cancer: a multicenter, open-label, first-in-human phase 1 study” (BMC Medicine, 2022).

Tested on: patients with ALK-positive NSCLC
Conditions: cited from earlier work

CCc1cc2c(cc1N1CCC(N3CCOCC3)CC1)C(C)(C)c1[nH]c3cc(C#N)ccc3c1C2=O [alectinib]
patients with diarrhea, nausea, and vomiting: < 10%
